Measurements: patent US20250109162A1, “FLEX-NUCLEOSIDE ANALOGUES, NOVEL THERAPEUTICS AGAINST VIRUSES” (UNIVERSITY OF MARYLAND, BALTIMORE COUNTY, priority 2022, published 2025)
Several values for one entry are separate records, joined by “and”; a condition that tells them apart may be missing. Equal entries are not always repeated.

What was measured:
[1] = test system: Epstein-Barr virus, strain Akata; type: cell-based
[2] = test system: Dengue Virus 2, strain New Guinea C; type: cell-based

Structure (SMILES) | SI90 - CC50/EC90 [1] | SI50 - CC50/EC50 [2]
Cc1ccc(-c2cn([C@@H]3C[C@@H](O)[C@H](CO)O3)c(=O)[nH]c2=O)s1 [CHK-03, 1-((2S,4R,5S)-4-hydroxy-5-(hydroxymethyl)tetrahydrofuran-2-yl)-5-(5-methylthiophen-2-yl)pyrimidine-2,4(1H,3H)-dione] | >5 | –
Nc1nc(=O)n([C@@H]2C[C@@H](O)[C@H](CO)O2)cc1-c1ccco1 [CHK-05, 4-amino-5-(furan-2-yl)-1-((2S,4R,5S)-4-hydroxy-5-(hydroxymethyl)tetrahydrofuran-2-yl)pyrimidin-2(1H)-one] | >5 | >1.3
Nc1ccn(C[C@@H](CO)OCP(=O)(O)O)c(=O)n1 [Cidofovir, reference compound] | >1 | –
C#C[C@@]1(O)[C@H](O)[C@@H](CO)O[C@H]1n1ccc2c(N)ncnc21 [NITD008] | – | >280 and >230
